Anti-infective test results gathered from many reports (values: NIAID ChemDB through PubChem).

Common to all: host cell toxicity; cells: HepG2; measure: CC50

Blank or dashed fields: not listed here. Conditions beyond the fields shown may differ between rows. a–b is a range or a potency band. CCn is the concentration with n% toxicity to the cells.

{"smiles": "CCCC/C=C/C=C/c1nc2cccc(OC)c2n2cccc12", "method": "MTT / absorbance", "value": "15.8 µM"}
{"smiles": "COc1ccc(F)cc1CNCCCNc1ccnc2cc(Cc3ccc(F)cc3)ccc12", "method": "fluorescence", "value": "3.53 µM"}
{"smiles": "CCOC(=O)CCCCCOc1cccc(CN(C(=O)c2ccc(-c3ccc4ccccc4c3)cc2)C(C)C)c1", "value": ">20 µM"}
{"smiles": "CCCC/C=C/C=C/c1nc2ccccc2n2cccc12", "method": "MTT / absorbance", "value": "8.2 µM"}
{"smiles": "CC(C)C[C@@H]1NC(=O)[C@H](Cc2c[nH]c3ccccc23)NC(=O)CNC(=O)[C@H](CC(N)=O)NC(=O)[C@H]([C@@H](C)O)NC(=O)[C@@H](CC(C)C)NC1=O", "method": "MTT", "value": ">30 µM"}
{"smiles": "Cc1cc(NC(=O)c2c(C)c(C(=O)C(=O)NC3CCC(O)CC3)n(C)c2C2CCCCC2)ccc1F", "method": "MTT", "value": "5–30 µM"}
{"smiles": "COc1cc2c(cc1OC)C(C)=NCC2", "value": ">20 µM"}
{"smiles": "Cc1cc(NC(=O)c2c(C3CC3)c(C(=O)C(=O)NC3(C)CC(O)C3)n(C)c2C)ccc1F", "method": "MTT", "value": ">30 µM"}
{"smiles": "CCC/C=C/C=C/c1nc2ccc(OC)cc2n2cccc12", "method": "MTT / absorbance", "value": "20.1 µM"}
{"smiles": "CC(C)C[C@@H]1NC(=O)[C@H](Cc2c[nH]c3ccccc23)NC(=O)[C@@H](CCCCN)NC(=O)[C@H](CC(N)=O)NC(=O)[C@H](C(C)C)NC(=O)[C@@H]2CCCN2C1=O", "method": "MTT", "value": ">30 µM"}
{"smiles": "Cc1cc(NC(=O)c2c(C)c(C(=O)C(=O)NCC(C)(C)O)n(C)c2C(C)C)ccc1F", "method": "MTT", "value": ">30 µM"}
{"smiles": "C[C@H]1C[C@@H]1NC(=O)c1cc2sc(N3CCC(N4CCOCC4)CC3)nc2s1", "method": "fluorescence", "value": ">100 µM"}
{"smiles": "CC(C)C[C@@H]1NC(=O)[C@H](Cc2c[nH]c3ccccc23)NC(=O)[C@@H](CCCCN)NC(=O)[C@H](CCC(N)=O)NC(=O)[C@H](CC(C)C)NC(=O)[C@@H](CC(C)C)NC1=O", "method": "MTT", "value": ">30 µM"}
{"smiles": "CC(=O)NC1CCC(n2c(NC(C)C)nc3c(c2=O)C[C@@H](C)N(C(=O)c2ccc(Cl)c(C(F)(F)F)c2)C3)CC1", "method": "luminescence", "value": "43.7 µM"}
{"smiles": "COc1ccc(F)cc1CNCCCNc1ccnc2cc(Oc3ccc(Cl)cc3)ccc12", "method": "fluorescence", "value": "4.5 µM"}
{"smiles": "Cc1cc(NC(=O)c2c(C)c(C(=O)C(=O)N[C@H]3[C@@H]4CC[C@@H](C4)[C@H]3CO)n(C)c2C)ccc1F", "method": "MTT", "value": ">30 µM"}
{"smiles": "CNC(=O)c1ccc(-n2c(NC(C)C)nc3c(c2=O)C[C@@H](C)N(C(=O)c2ccc(Br)c(C(F)F)c2)C3)cc1", "method": "luminescence", "value": ">50 µM"}
{"smiles": "COC(=O)N1CC[C@@H](Oc2nc3sc(C(=O)NC4CCC4)cc3s2)C1", "method": "fluorescence", "value": ">100 µM"}
{"smiles": "CC(C)N(Cc1cccc(OCCCCCC(=O)OC(=O)O)c1)C(=O)c1ccc(-c2ccc3c(c2)OCCO3)cc1", "value": ">20 µM"}
{"smiles": "COC(=O)N1CCN(c2nc3sc(C(=O)N[C@H]4C[C@@H]4C)cc3s2)C[C@H]1C", "method": "fluorescence", "value": ">100 µM"}
{"smiles": "CCOC(=O)CCCCCOc1cccc(CN(C(=O)c2ccc(-c3cccc(F)c3)cc2)C(C)C)c1", "value": ">20 µM"}
{"smiles": "Cc1cc(NC(=O)c2c(C)c(C(=O)C(=O)NC3(C)CCC(O)CC3)n(C)c2C2CC2)ccc1F", "method": "MTT", "value": ">30 µM"}
{"smiles": "CNC(=O)c1c(Cl)c(-n2c([C@H](O)C(C)C)nc3c(c2=O)C[C@@H](C)N(C(=O)c2ccc(Br)c(C(F)(F)F)c2)C3)nn1C", "method": "luminescence", "value": "29 µM"}
{"smiles": "CCC/C=C/C=C/c1nc2cc(OC)ccc2n2cccc12", "method": "MTT / absorbance", "value": "8.8 µM"}
{"smiles": "C=CCCC(=O)NC[C@H](O)c1ccc2c(c1)OCO2", "value": "<7.5 µM"}
{"smiles": "CC(C)C[C@@H]1NC(=O)[C@H](Cc2c[nH]c3ccccc23)NC(=O)[C@@H](CCCCN)NC(=O)[C@H](C)NC(=O)[C@H](C(C)C)NC(=O)[C@@H](CC(C)C)NC1=O", "method": "MTT", "value": ">30 µM"}
{"smiles": "COc1ccccc1Oc1ccc2c(NCCCNCc3cccc(OC)c3O)ccnc2c1", "method": "fluorescence", "value": "11.2 µM"}
{"smiles": "C[C@H]1C[C@@H]1NC(=O)c1cc2sc(OC3COC3)nc2s1", "method": "fluorescence", "value": ">100 µM"}
{"smiles": "C=CCC1=CCCc2cc(OC)c(OC)cc21", "value": ">20 µM"}
{"smiles": "CC(C)C[C@@H]1NC(=O)[C@H](Cc2c[nH]c3ccccc23)NC(=O)[C@H](CCCN=C(N)N)NC(=O)[C@H](CCCCN)NC(=O)[C@H](C(C)C)NC(=O)[C@@H](CC(C)C)NC1=O", "method": "MTT", "value": ">30 µM"}
{"smiles": "C/C=C/C=C/C=C/c1nc2ccccc2n2cccc12", "method": "MTT / absorbance", "value": "10.6 µM"}
{"smiles": "CNC(=O)[C@H]1CC[C@H](n2c(NC(C)C)nc3c(c2=O)C[C@@H](C)N(C(=O)c2ccc(Br)c(C(F)(F)F)c2)C3)C1", "method": "luminescence", "value": "16.6 µM"}
{"smiles": "Cc1cc(NC(=O)c2c(C)c(C(=O)C(=O)NC3(C)CCC(O)CC3)n(C)c2CC2CC2)ccc1F", "method": "MTT", "value": ">30 µM"}
{"smiles": "COc1ccc(F)cc1CNCCCNc1ccnc2cc(-c3ccc(C(F)(F)F)cc3)ccc12", "method": "fluorescence", "value": "5.19 µM"}
{"smiles": "CCOC(=O)CC(=O)NCC(OCC)(OCC)c1ccc2c(c1)OCO2", "value": "<7.5 µM"}
{"smiles": "Cc1cc(NC(=O)c2c(C)c(C(=O)C(=O)NC3CCC(O)CC3)n(C)c2C2CCCC2)ccc1F", "method": "MTT", "value": ">30 µM"}
{"smiles": "c1ccc(Cc2ccc3c(NCCCNCc4ccco4)ccnc3c2)cc1", "method": "fluorescence", "value": "16 µM"}
{"smiles": "Cc1cc(NC(=O)c2c(C)c(C(=O)C(=O)NCC(C)(C)O)n(C)c2-c2ccncc2)ccc1F", "method": "MTT", "value": ">30 µM"}
{"smiles": "CCOC(=O)CCCCCOc1cccc(CN(C(=O)c2ccc(-c3cc4ccccc4n3S(=O)(=O)c3ccccc3)cc2)C(C)C)c1", "value": ">20 µM"}

Repeating the first 3 entries:

| smiles | method | value |
|---|---|---|
| CCCC/C=C/C=C/c1nc2cccc(OC)c2n2cccc12 | MTT / absorbance | 15.8 µM |
| COc1ccc(F)cc1CNCCCNc1ccnc2cc(Cc3ccc(F)cc3)ccc12 | fluorescence | 3.53 µM |
| CCOC(=O)CCCCCOc1cccc(CN(C(=O)c2ccc(-c3ccc4ccccc4c3)cc2)C(C)C)c1 |  | >20 µM |